Results: article PMC3590139, “Isocitrate Dehydrogenase from Streptococcus mutans: Biochemical Properties and Evaluation of a Putative Phosphorylation Site at Ser102” (PLoS ONE, 2013)

Key:
[1] = tested on: NC(=O)c1ccc[n+]([C@@H]2O[C@H](COP(=O)(O)OP(=O)(O)OC[C@H]3O[C@@H](n4cnc5c(N)ncnc54)[C@H](O)[C@@H]3O)[C@@H](O)[C@H]2O)c1; assay: purified protein; details: saturating DL-isocitrate, 35 mM Tris-HCl pH 7.5, 3.5 mM MnCl2, 37 °C
[2] = tested on: O=C(O)CC(C(=O)O)C(O)C(=O)O; assay: purified protein; details: saturating NAD+, 35 mM Tris-HCl pH 7.5, 3.5 mM MnCl2, 37 °C

Substance	Km [1] [µM]	kcat [1] [s⁻¹]	kcat/Km [1] [M⁻¹ s⁻¹]	Km [2] [µM]	kcat [2] [s⁻¹]	kcat/Km [2] [M⁻¹ s⁻¹]
SmIDH (Streptococcus mutans UA159; S102A)	246	3	10000	148	3.3	22000
SmIDH (Streptococcus mutans UA159; S102G)	295	9.1	30000	143	4	28000
SmIDH (Streptococcus mutans UA159; S102T)	350	59	170000	150	25	170000
SmIDH (Streptococcus mutans UA159; S102Y)	1560	3.5	2000	385	1.5	4000
